Results of unrelated studies side by side (data: NIAID ChemDB).

Shared fields: cytotoxicity tests; measure: CC50

CCn is the concentration with n% toxicity to the cells. An empty or dashed field is not shown. Conditions beyond the fields shown may differ between rows.

| smiles | cells | read by | result |
|---|---|---|---|
| CC#Cc1cn([C@H]2C[C@H](O)[C@@H](CO)O2)c(=O)[nH]c1=O | HEL |  | 312 µM |
| COc1ccc(C(=O)NC2N=C(c3cccc(C(F)(F)F)c3)c3ccccc3NC2=O)cc1 | HEP-2 |  | 9 µM |
| O=c1[nH]c(=O)n([C@@H]2O[C@H](CO)[C@@H](O)[C@@H]2O)cc1/C=C/Cl | HEL |  | >526 µM |
| Cc1ccc(-c2ccc3c(c2)C=C(C(=O)Nc2ccc(C[N+](C)(C)C4CCOCC4)cc2)CCC3)cc1 | MAGI-CCR5 |  | >10 µM |
| O=c1ccn([C@@H]2CC[C@H](CO)O2)c(=O)[nH]1 | Primary duck hepatocytes |  | 200 µg/mL |
| COC(=O)Nc1nc2ccc(C(=O)c3cccs3)cc2[nH]1 | E6 |  | 0.03 µg/mL |
| OCCc1ccc(O)c(O[C@@H]2O[C@H](CO)[C@@H](O)[C@H](O)[C@H]2O)c1 | MDA-MB-231 | MTT | 4.78 µM |
| Nc1ccn([C@H]2CO[C@@H](CO)S2)c(=O)n1 | CBMC |  | >500 µM |
| COc1cccc(CCC(=O)NC2N=C(c3ccccc3)c3ccccc3NC2=O)c1 | HEP-2 |  | 5 µM |
| NC(=O)c1ncn([C@@H]2O[C@H](CO)[C@@H](O)[C@H]2O)n1 | MDBK | MTT | 5 µM |
| CCCSc1ccc2nc(NC(=O)OC)[nH]c2c1 | E6 |  | 0.3 µg/mL |
| CCCCc1ccc(Nc2c[nH]c(=O)[nH]c2=O)cc1 | A549 cells | MTT | >50 µg/mL |
| O=C(CC(O)c1ccccc1)NC1N=C(c2ccccc2)c2ccccc2NC1=O | HEP-2 |  | 1.9 µM |
| Cc1cc(C)cc(S(=O)(=O)c2c(C(N)=O)[nH]c3ccc(Cl)cc23)c1 | Lymphocytes |  | 18 µM |
| Nc1nc(=O)n([C@H]2CO[C@@H](CO)S2)cc1F | CBMC |  | >500 µM |
| O=C(NC1N=C(c2ccccc2)c2ccccc2NC1=O)c1cnccn1 | HEP-2 |  | 2 µM |
| FC(F)(F)c1ccc(NC(=S)NCCc2ccccc2)nc1 | HUMAN SPERM |  | >500 µM |
| NC(=O)c1[nH]nc([C@@H]2O[C@H](CO)[C@@H](O)[C@H]2O)c1O | Primary duck hepatocytes |  | 25 µg/mL |
| Cc1ccc(Nc2cn(C3C=CC(O)C3)c(=O)n(C3C=CC(O)C3)c2=O)cc1 | Huh7 cells | MTT | >50 µg/mL |
| S=C(NCCC1=CCCCC1)Nc1ccc(Br)cn1 | Human vaginal epithelial |  | >1000 µM |
| O=c1[nH]c(=S)n([C@H]2C[C@H](O)[C@@H](CO)O2)cc1F | RPMI8226 |  | 184 µM |
| Cc1cn([C@@H]2O[C@H](CO)[C@@H](O)[C@@H]2O)c(=O)[nH]c1=O | HEL |  | 58 µM |
| Nc1nc2c(ncn2[C@H]2C[C@@]23C[C@@H]3CO)c(=O)[nH]1 | BSC-1 |  | >100 µM |
| C[C@@H]1CC[C@H]2[C@@H](C)C(=O)O[C@@H]3OC4(C)CC[C@@H]1[C@]32OO4 | HuH6 |  | >177 µM |
| COC(=O)Nc1nc2ccc(Sc3ccccc3)cc2[nH]1 | E6 |  | 0.2 µg/mL |
| Nc1ccn([C@@H]2O[C@H](CO)[C@@H](O)[C@@H]2O)c(=O)n1 | Primary duck hepatocytes |  | 200 µg/mL |
| COC(=O)Nc1nc2ccc(C(=O)c3ccccc3)cc2[nH]1 | E6 |  | 0.2 µg/mL |
| O=C(O)[C@H]1O[C@@H](Oc2cc3oc(-c4ccccc4)cc(=O)c3c(O)c2O)[C@H](O)[C@@H](O)[C@@H]1O | BCC-1/KMC |  | 41.1 µg/mL |
| S=C(NCCc1ccccn1)Nc1ccccn1 | HUMAN SPERM |  | 279 µM |
| O=c1[nH]c(=O)n([C@@H]2O[C@H](CO)[C@@H](O)[C@@H]2F)cc1I | HEL |  | 3.1 µM |
| Cc1cn([C@H]2C[C@H](N=[N+]=[N-])[C@@H](CO)O2)c(=O)nc1N | CFU-GM |  | 36 µM |
| O=C(CO)CCC(=O)OCCc1ccc2c(c1)OCO2 | HL-60 | MTT | 4.05 µM |
| Nc1ncnc2c1ncn2CCOCP(=O)(O)O | HB611 |  | 48 µM |
| CCCCc1ccc2nc(NC(=O)OC)[nH]c2c1 | E6 |  | 0.03 µg/mL |
| Nc1nc2c(ncn2[C@H]2C[C@@]23C[C@H]3CO)c(=O)[nH]1 | BSC-1 |  | >100 µM |
| C[C@H]1[C@H](C)CC[C@]2(C(=O)O)CC[C@]3(C)C(=CC[C@@H]4[C@@]5(C)CC[C@H](O)C(C)(C)[C@@H]5CC[C@]43C)[C@H]12 | BCC-1/KMC |  | 14.4 µg/mL |
| O=c1[nH]c(=O)n([C@@H]2O[C@H](CO)[C@@H](O)[C@@H]2O)cc1C=C(Br)Br | HEL |  | >376 µM |
| S=C(NCCC1=CCCCC1)Nc1ccccn1 | HUMAN SPERM |  | >500 µM |
| CC12COS(=O)(=O)CC1=C(c1ccc(F)c(F)c1)C(=O)O2 | MDBK | MTT | >20 µM |
| C[C@@H]1O[C@@H](O[C@@H]2[C@@H](O)[C@H](OCCc3ccc(O)c(O)c3)O[C@H](COC(=O)/C=C/c3ccc(O)c(O)c3)[C@H]2O)[C@H](O)[C@H](O)[C@H]1O | HL-60 | MTT | 11.19 µM |
| O=S(=O)(c1cccc2cnccc12)N1CCCNCC1 | U1 | MTT | 65 µM |
| COc1cc(/C=C/C(=O)O)ccc1O | BCC-1/KMC |  | 92.6 µg/mL |
| Cc1cn([C@H]2C[C@H](O)[C@@H](CO)O2)c(=O)[nH]c1=O | RPMI8226 |  | 1237 µM |
| O=C([O-])c1cc(COc2ccc(-c3c4nc(c(-c5ccc(OCc6cc(C(=O)[O-])cc(C(=O)[O-])c6)cc5)c5ccc([nH]5)c(-c5ccc(OCc6cc(C(=O)[O-])cc(C(=O)[O-])c6)cc5)c5nc(c(-c6ccc(OCc7cc(C(=O)[O-])cc(C(=O)[O-])c7)cc6)c6ccc3[nH]6)C=C5)C=C4)cc2)cc(C(=O)[O-])c1 | MAGI cell | MTT | 35 µM |
| CNc1ccc2oc(C[C@@H]3OC4(CC[C@@H]3C)O[C@H](C(C)C(=O)c3ccc[nH]3)[C@H](C)C[C@H]4C)nc2c1C(=O)O | Macrophage | luminescence | 0.32 µg/mL |
| O=c1[nH]c(=S)n([C@@H]2O[C@H](CO)[C@@H](O)[C@@H]2O)cc1I | RPMI8226 |  | 180 µM |
| CC(C)n1nc(-c2ccc3oc(N)nc3c2)c2c(N)ncnc21 | U1 | MTT | >0.01 µM |
| CC(C)(C)S(=O)(=O)C[C@@H](Cc1cccc2ccccc12)C(=O)N[C@H](C(=O)N[C@@H](Cc1ccccc1)[C@@H](O)[C@H](O)[C@H](Cc1ccccc1)NC(=O)[C@@H](NC(=O)[C@H](Cc1cccc2ccccc12)CS(=O)(=O)C(C)(C)C)C1CCCCC1)C1CCCCC1 | PBLC |  | >0.06 µM |
| Nc1ncnc2c1ncn2[C@H]1CC[C@@H](CO)O1 | Primary duck hepatocytes |  | 135 µg/mL |
| COC(=O)[C@H](C)NP(=O)(OC[C@@H]1C[C@]12C[C@@H]2n1cnc2c(N)ncnc21)Oc1ccccc1 | BSC-1 |  | 70 µM |
| CCCCN1C[C@H](O)[C@@H](O)[C@H](O)[C@H]1CO | MDBK | XTT | >1000 µM |
| COc1cc(/C=C/c2ccc3c(C(=O)O)cc(C(=O)O)c(O)c3n2)cc(O)c1O | HeLaP4 | MTT | 60 µM |
| S=C(NCCc1ccccc1Cl)Nc1ccc(Br)cn1 | Human vaginal epithelial |  | >1000 µM |
| CC1(C)CC[C@]2(C(=O)O)CC[C@]3(C)C(=CC[C@@H]4[C@@]5(C)CC[C@H](O)C(C)(C)[C@@H]5CC[C@]43C)[C@@H]2C1 | BCC-1/KMC |  | 37.8 µg/mL |
| COc1cc2ccccc2cc1C(=O)N[C@H]1N=C(c2ccccc2)c2ccccc2NC1=O | HEP-2 |  | 1.5 µM |
| CC(C)[C@H](NC(=O)[C@H](Cc1cccc2ccccc12)CS(=O)(=O)C(C)(C)C)C(=O)NC[C@@H](O)[C@H](O)CNC(=O)[C@@H](NC(=O)[C@H](Cc1cccc2ccccc12)CS(=O)(=O)C(C)(C)C)C(C)C | PBLC |  | >10 µM |
| O=C(O)c1ccccn1 | J774A.1 | absorbance | 2538 µM |
| CCCCOc1ccc(Nc2c[nH]c(=O)[nH]c2=O)cc1 | Vero cells | MTT | >50 µg/mL |
| O=c1[nH]c(=S)n([C@@H]2O[C@H](CO)[C@@H](O)[C@@H]2O)cc1Br | RPMI8226 |  | >295 µM |
| CCCCCCCCCc1ccc(OCCOCCOCCOCCOCCOCCOCCOCCOCCO)cc1 | Human vaginal epithelial |  | 64 µM |
| CO[C@H]1/C=C/O[C@@]2(C)Oc3c(C)c(O)c4c(O)c(c(/C=N/N5CCN(C)CC5)c(O)c4c3C2=O)NC(=O)/C(C)=C\C=C\[C@H](C)[C@H](O)[C@@H](C)[C@@H](O)[C@@H](C)[C@H](OC(C)=O)[C@@H]1C | A549 cells | MTT | >50 µg/mL |
| CCCC(=O)O[C@H]1CN2CC[C@H](O)[C@@H]2[C@@H](O)[C@@H]1O | MDBK | XTT | >300 µM |
| OCCc1ccc(O)c(O)c1 | HL-60 | MTT | 9.02 µM |
| CC(C)(C)S(=O)(=O)C[C@@H](Cc1cccc2ccccc12)C(=O)N[C@@H](CC(N)=O)C(=O)N[C@@H](Cc1ccccc1)[C@@H](O)[C@H](O)[C@H](Cc1ccccc1)NC(=O)[C@H](CC(N)=O)NC(=O)[C@H](Cc1cccc2ccccc12)CS(=O)(=O)C(C)(C)C | PBLC |  | >10 µM |
| Fc1ccc(CCNC(=S)Nc2ccc(Br)cn2)cc1 | HUMAN SPERM |  | >500 µM |
| Nc1nc2c(ncn2[C@H]2C[C@]23C[C@@H]3CO)c(=O)[nH]1 | BSC-1 |  | >100 µM |
| Nc1nc(=S)n([C@H]2C[C@H](O)[C@@H](CO)O2)cc1I | RPMI8226 |  | 256 µM |
| CC12COS(=O)(=O)CC1=C(c1ccc(C(F)(F)F)cc1)C(=O)O2 | MDBK | MTT | >20 µM |
| CC(C)[C@H](NC(=O)N(C)Cc1ccccn1)C(=O)N[C@@H](Cc1ccccc1)[C@@H](O)[C@H](O)[C@H](Cc1ccccc1)NC(=O)[C@@H](NC(=O)N(C)Cc1ccccn1)C(C)C | PBLC |  | >0.958 µM |
| O=C([O-])c1ccc(C2=C3C=CC(=N3)C(c3ccc(C(=O)[O-])cc3)=C3C=CC(=N3)C(=c3ccc(=C([O-])[O-])cc3)c3ccc([n-]3)C(c3ccc(C(=O)[O-])cc3)=C3C=CC2=N3)cc1 | MAGI cell | MTT | >100 µM |

A second listing of 5 rows from above:

smiles	cells	read by	result
NC(=O)c1ncn([C@@H]2O[C@H](CO)[C@@H](O)[C@H]2O)n1	MDBK	MTT	5 µM
CC12COS(=O)(=O)CC1=C(c1ccc(C(F)(F)F)cc1)C(=O)O2	MDBK	MTT	>20 µM
Cc1cc(C)cc(S(=O)(=O)c2c(C(N)=O)[nH]c3ccc(Cl)cc23)c1	Lymphocytes		18 µM
CCCCc1ccc(Nc2c[nH]c(=O)[nH]c2=O)cc1	A549 cells	MTT	>50 µg/mL
Nc1ccn([C@H]2CO[C@@H](CO)S2)c(=O)n1	CBMC		>500 µM